Consider one compound from PMC12432378 (Cell Reports Medicine, 2025).

SMILES strings stand for the structures.

The test system of assay [1] is authentic MjHKU4r-CoV-1. The settings on record: 40 nM peptide; Figure 6D.
For assay [2], the system named is authentic MjHKU4r-CoV-1. Description: Inhibition of authentic MjHKU4r-CoV-1 infection, RT-qPCR. For orientation: In qPCR the cycle at which signal appears reflects the starting amount.

As a reminder, the IC50 is the concentration that inhibits the measured activity by half. Low readings indicate higher potency, high ones lower potency. Take `CC[C@H](C)[C@H](NC(=O)[C@H](C)NC(=O)[C@H](CCSC)NC(=O)[C@H](CCC(=O)O)NC(=O)[C@H](CC(=O)O)NC(=O)[C@H](CO)NC(=O)[C@H](CC(C)C)NC(=O)[C@H](CC(=O)O)NC(=O)[C@H](CC(C)C)NC(=O)[C@H](CC(C)C)NC(=O)[C@@H](NC(=O)[C@@H](NC(=O)[C@H](CC(N)=O)NC(=O)[C@@H](NC(=O)[C@H](CCCCN)NC(=O)[C@H](CO)NC(=O)[C@@H](NC(=O)[C@H](CCC(=O)O)NC(C)=O)[C@@H](C)CC)[C@@H](C)CC)C(C)C)[C@@H](C)O)C(=O)N[C@@H](CC(C)C)C(=O)N[C@@H](CC(C)C)C(=O)N[C@@]1(C)CCCC=CCCC[C@@](C)(C(=O)N[C@@H](CC(C)C)C(=O)N[C@@H](CC(N)=O)C(=O)N[C@@H](CC(=O)O)C(=O)N[C@@H](CO)C(=O)N[C@@H](Cc2ccc(O)cc2)C(=O)N[C@H](C(=O)N[C@@H](CC(=O)O)C(=O)N[C@@H](CC(C)C)C(=O)N[C@@H](CCCCN)C(=O)N[C@@H](CCC(=O)O)C(=O)N[C@@H](CC(C)C)C(N)=O)[C@@H](C)CC)NC(=O)[C@H](CCCCN)NC(=O)[C@H]([C@@H](C)CC)NC(=O)[C@H](C)NC1=O` [MjHKU4r-HR2P10]: the IC50 with MjHKU4r-S stood at 3.56 nM; in the assay on MjHKU4r-CoV-1 PsV, 8.29 nM; in the assay on authentic MjHKU4r-CoV-1 [2] it was 2.13 nM. The “Suppression of authentic MjHKU4r-CoV-1 N protein expression (immunofluorescence)” value with authentic MjHKU4r-CoV-1 [1] is recorded as “almost completely suppressed”.
